Assay results: article PMC6848382, “Characterization of the Bioactivity and Mechanism of Bactenecin Derivatives Against Food-Pathogens” (Frontiers in Microbiology, 2019)

Each substance was assayed on 12 typical food-pathogens. Conditions: ratio of MHC to GM.
RRFRIVVIRWLR-NH2 [R2F3W10L11] was tested, and the “SI (selectivity index)” value was 4.0.
In the case of RWRRIVVIRVRR-NH2 [W2R3V10R11], the “SI (selectivity index)” value is reported as 21.5.
With RKWRIVVIRVRR-NH2 [K2W3V10R11] the “SI (selectivity index)” value was 26.9.
In the case of RRWRIVVIRWRR-NH2 [R2W3W10R11], the “SI (selectivity index)” value is reported as 4.2.
With RKRRIVVIRRKR-NH2 [K2R3R10K11] the “SI (selectivity index)” value was 2.7.
With RWKRIVVIRKRR-NH2 [W2K3K10R11] the “SI (selectivity index)” value was 3.0.

No end group written: not given here.
